Results as given in paper PMC7954794, “Protein context shapes the specificity of SH3 domain-mediated interactions in vivo” (Nature Communications, 2021).

B1: YPR055W (protein, UniProt P32855 1-1065, looked up)
Exocyst complex component SEC8: MDYLKPAQKGRRRGLSINSLSETQQSAMNSSLDHLQNDLNRINLQWNRILSDNTNPLELALAFLDDTSVGLGHRYEEFNQLKSQIGSHLQDVVNEHSQVFNTNVASYGKAVSSIMQAQEQTLNLKNCLKEANEKITTDKGSLQELNDNNLKYTKMIDVLVNIEELLQIPEKIEENIRKENFHQVQILLERGFILMNNKSLKTVEILKPINQQLELQEHLLFNNLIEEIHDIMYSKSNKTNFTRVTNNDIFKIISISHNGFTSLENYLYNIVNIDIMEHSKTINKNLEQFIHDQSLNKGNIMLQENAATQAPLAPSRNQENEGFNRIGFLLKTINNINKLPVAFNIITERAKEEIHNIIVKSTESIRSKHPSLLKMATSLKNDNHFGLPVQDILSIILRECFWEIFLKLLYAIQCHRAIFEMSNILQPTSSAKPAFKFNKIWGKLLDEIELLLVRYINDPELISSNNGSIKPINGATNNAPTLPKRKNPKIFSLEYNIEDNSSVKDQAFELKALLKDIFPGFSVSSNMDLDSIYVKDESFEQDEPLVPPSVFNMKVILDPFLLFTQSTSTIVPSVLTQNTISSLTFFDDYMNKSFLPKIQMTMDYLFTVEVESNNPYALELSDENHNIFKTALDFQRLFYNLLNVFNTANTFREKISYCILDLLNHFYNYYLGLFNSLIGTSDRHLTRKIITAWLQNGILMDQEQKILNGDETLFHEESIELFKEIPHFYQAGKGLSKSDLFNNLTLDTILQFSASVLWILNWLPGLKKAINIDEVSQEPMLDADRLRSSWTFSESMDLNYSNPSSSPNSLGNLKILLDDKASKKFDETIDGFKTLKFKLITILRFNIRALCIYDIGSFFQNTKIWNMDVGSIELDQNIASLISELRRTESKLKQQLPEKEKNSIFIGLDIVNNYALIKGAKSIKVLNHNGIKKMLRNVNVLQHAYRNLSSEPSKINMNVTMNFYSLCGSSEAELFEYIKDNELPHCSVEDLKTILRLQFSEEMHRQLKRQSTSSTKGSIKPSNKRYTEALEKLSNLEKEQSKEGARTKIGKLKSKLNAVHTANEK
B2: YNL243W (protein, UniProt P33338 1-968, looked up)
Protein SLA2: MSRIDSDLQKALKKACSVEETAPKRKHVRACIVYTWDHQSSKAVFTTLKTLPLANDEVQLFKMLIVLHKIIQEGHPSALAEAIRDRDWIRSLGRVHSGGSSYSKLIREYVRYLVLKLDFHAHHRGFNNGTFEYEEYVSLVSVSDPDEGYETILDLMSLQDSLDEFSQIIFASIQSERRNTECKISALIPLIAESYGIYKFITSMLRAMHRQLNDAEGDAALQPLKERYELQHARLFEFYADCSSVKYLTTLVTIPKLPVDAPDVFLINDVDESKEIKFKKREPSVTPARTPARTPTPTPPVVAEPAISPRPVSQRTTSTPTGYLQTMPTGATTGMMIPTATGAANAIFPQATAQMQPDFWANQQAQFANEQNRLEQERVQQLQQQQAQQELFQQQLQKAQQDMMNMQLQQQNQHQNDLIALTNQYEKDQALLQQYDQRVQQLESEITTMDSTASKQLANKDEQLTALQDQLDVWERKYESLAKLYSQLRQEHLNLLPRFKKLQLKVNSAQESIQKKEQLEHKLKQKDLQMAELVKDRDRARLELERSINNAEADSAAATAAAETMTQDKMNPILDAILESGINTIQESVYNLDSPLSWSGPLTPPTFLLSLLESTSENATEFATSFNNLIVDGLAHGDQTEVIHCVSDFSTSMATLVTNSKAYAVTTLPQEQSDQILTLVKRCAREAQYFFEDLMSENLNQVGDEEKTDIVINANVDMQEKLQELSLAIEPLLNIQSVKSNKETNPHSELVATADKIVKSSEHLRVDVPKPLLSLALMIIDAVVALVKAAIQCQNEIATTTSIPLNQFYLKNSRWTEGLISAAKAVAGATNVLITTASKLITSEDNENTSPEQFIVASKEVAASTIQLVAASRVKTSIHSKAQDKLEHCSKDVTDACRSLGNHVMGMIEDDHSTSQQQQPLDFTSEHTLKTAEMEQQVEILKLEQSLSNARKRLGEIRRHAYYNQDDD

Tests used:
Type in all cases: cell-based, Saccharomyces cerevisiae
Set-up in all cases: key: 0: SH3-independent; 1: SH3-dependent PPIs; 2: SH3-inhibited PPIs
ABP1 = assay: DHFR-PCA on solid medium, bait ABP1 (Fig. 1B); settings: bait ABP1, label = prey
From the text: (§1) Supplement 41467_2021_21873_MOESM8_ESM.xlsx, sheet "Fig1B" | column: medsize; medrep; Ratio; Score

BEM1-1 = assay: DHFR-PCA on solid medium, bait BEM1-1 (Fig. 1B); settings: bait BEM1-1, label = prey
From the text: as §1

BEM1-2 = assay: DHFR-PCA on solid medium, bait BEM1-2 (Fig. 1B); settings: bait BEM1-2, label = prey
From the text: as §1

Row | Molecule | Score (ABP1) | Score (BEM1-1) | Score (BEM1-2)
1 | B1 | 1 | 1 | 1
2 | B2 | 0 | 1 | 1

No dose or concentration is given here for some results.
